Reference: PubChem BioAssay AID504761 (Drosophila RNAi Screening Center, 2011)
Screen: 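Genome-wide fly cell screen for genes dengue virus requires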 (primary screen). Cells: D.Mel-2 cells from Drosophila. Knock-down reagent: long dsRNA against Drosophila genes. Challenge: infection with dengue virus type 2; dose and infection time not stated. Measurement: 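Per well on two replicate plates, imaging gave the percent of cells positive for viral envelope protein, ranked by infection, and a nuclear count of cells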. Reading the numbers: infection score: higher = more virus-infected cells. Rule for the call: 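Very low infection ranking in both replicate wells (chance probability at most 0.065), then a retest showing infection dropped 1.5-fold or more at p below 0.05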. Meaning of the calls: active = confirmed: knock-down lowers infection; inactive = not picked or not confirmed.
In all, the deposit lists about 22,000 reagents; shown is an unselected part of those that have a named target and a result. In the full data, 116 (0.52%) got an active call. 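Calls depend on retest data that are not deposited; infection was ranked per plate without normalising between plates; the unit of the infection score is not given.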 Entries without a mark were called inactive. A plus sign joins genes that one reagent is predicted to hit. Not all columns of the deposit are shown. No sequences are given here. Not given: the amount of reagent, the time to read-out.

Depletion of CG10417 [DRSC04846] came out at: infection score, replicate 1 = 19.5.
CG10417 [DRSC27173] scored infection score, replicate 1 = 8.65.
Silencing of amd [DRSC02608] gave: infection score, replicate 1 = 2.14.
Against amd [DRSC03483] the deposit lists infection score, replicate 1 = 5.76.
CG18641 [DRSC00527] showed infection score, replicate 1 = 3.28.
CG13720 [DRSC08329] scored infection score, replicate 1 = 5.
CG13720 [DRSC23787] showed infection score, replicate 1 = 5.8.
For Atg8a [DRSC18024], the entry reads infection score, replicate 1 = 5.62.
After knock-down of Atg8a [DRSC24298], the screen gave infection score, replicate 1 = 11.4.
After knock-down of Lime [DRSC06752], the screen gave infection score, replicate 1 = 3.46.
For CG15739 [DRSC19705], the entry reads infection score, replicate 1 = 1.6.
CG15739 [DRSC28638] gave infection score, replicate 1 = 21.8.

Copied from above (2 entries):
CG18641 [DRSC00527]: infection score, replicate 1 = 3.28
CG13720 [DRSC08329]: infection score, replicate 1 = 5

The listing continues:
Silencing of Uhg1 [DRSC26214] gave: infection score, replicate 1 = 12.7.
For CG45105 [DRSC15833] the deposit lists infection score, replicate 1 = 5.02.
Silencing of CG45105 [DRSC25976] came out at: infection score, replicate 1 = 1.73.
CG42560 + CG42559 [DRSC21873] showed infection score, replicate 1 = 5.22.
Silencing of cype [DRSC02356] came out at: infection score, replicate 1 = 2.34.
CG10853 [DRSC08164] showed infection score, replicate 1 = 0.57.
Silencing of CG10853 [DRSC23600] came out at: infection score, replicate 1 = 1.45.
After knock-down of insb [DRSC06995] the results were infection score, replicate 1 = 15.3.
Depletion of insb [DRSC24404] resulted in: infection score, replicate 1 = 5.69.
